Laboratory results from article PMC5705639 (Scientific Reports, 2017).

By UniProt entry, the sequences of proteins in these tests, tags left out. Where a name states a change or a piece, a line headed by the entry shows the natural chain unless it says otherwise.
UniProt Q93UJ2: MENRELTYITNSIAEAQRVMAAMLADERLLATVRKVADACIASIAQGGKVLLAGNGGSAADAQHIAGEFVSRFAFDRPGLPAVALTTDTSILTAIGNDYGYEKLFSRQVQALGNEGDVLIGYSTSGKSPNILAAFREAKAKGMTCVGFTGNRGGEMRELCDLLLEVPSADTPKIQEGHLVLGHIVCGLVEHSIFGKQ

Biological target: GmhA (Burkholderia pseudomallei, UniProt Q93UJ2)
Details: read-out: K 1/2

SMILES: O=P(O)(O)OC[C@@H](O)[C@H]1OC(O)(CO)[C@@H](O)[C@@H]1O (stereo partly shown) [sedoheptulose-7-phosphate]
- Km: 140 ± 20 µM
